Anti-infective test results gathered from many reports (values: NIAID ChemDB through PubChem).

Common to all: toxicity to cultured cells; cells: MT-4; method: luminescence; read-out: CC50

Conditions beyond the fields shown may differ between rows. CCn: concentration that lowers growth or viability of the cells by n%.

{"SMILES": "COC1=NS[C@]2(CC[C@H](C)N3C[C@H]2n2cc(C(=O)NCc4ccc(F)cc4F)c(=O)c(O)c2C3=O)C1", "value": "50 µM"}
{"SMILES": "COc1cc2c(cc1Cc1cccc(Cl)c1F)c(=O)c(C(=O)O)cn2[C@H](CO)C(C)C", "value": "4.197 µM"}
{"SMILES": "O=C(NCCCCN1CCCC2=C[C@@H]3C[C@@H](CN4CCCC[C@H]34)[C@@H]21)c1ccc(OC(F)(F)F)cc1", "value": ">20 µM"}
{"SMILES": "CC1(C)CC=C(c2cn(-c3nccc(C(=O)NC4CCC(N5CC6CCC(C5)O6)CC4)n3)c3ccc(F)c([C@H](OC(C)(C)C)C(=O)O)c23)CC1", "value": "6.84 µM"}
{"SMILES": "C[C@H]1CC[C@]2(CC(=O)N(Cc3ccc(C#N)cc3)O2)[C@H]2CN1C(=O)c1c(O)c(=O)c(C(=O)NCc3c(F)cc(F)cc3F)cn12", "value": "50 µM"}
{"SMILES": "O=C(NCCCCCCN1CCC[C@@H]2C[C@@H]3C[C@@H](CN4CCCC[C@H]34)[C@@H]21)c1ccc(OC(F)(F)F)cc1", "value": ">20 µM"}
{"SMILES": "CCCCCCCC(=O)OCOc1c2n(cc(C(=O)NCc3ccc(F)cc3F)c1=O)[C@@H]1CN(C2=O)[C@@H](C)CC[C@]12CC(OC)=NO2", "value": "50 µM"}
{"SMILES": "CC1=NO[C@]2(CC[C@H](C)N3C[C@H]2n2cc(C(=O)NCc4ccc(F)cc4F)c(=O)c(O)c2C3=O)C1C", "value": "50 µM"}
{"SMILES": "O=C(NCCCN1CCCC2=C[C@@H]3C[C@@H](CN4CCCC[C@H]34)[C@@H]21)c1c(F)cc(Br)cc1F", "value": ">20 µM"}
{"SMILES": "CCCCCCCCCCCCCCCCOC(=O)Oc1c2n(cc(C(=O)NCc3ccc(F)cc3F)c1=O)[C@@H]1CN(C2=O)[C@@H](C)CC[C@]12CC(OC)=NO2", "value": "50 µM"}
{"SMILES": "O=C(NCCCCCN1CCCC2=C[C@@H]3C[C@@H](CN4CCCC[C@H]34)[C@@H]21)c1c(F)cc(Br)cc1F", "value": ">20 µM"}
{"SMILES": "CC1=NO[C@@]2(CC[C@H](C)N3C[C@H]2n2cc(C(=O)NCc4ccc(F)cc4F)c(=O)c(OCOC(=O)CCCCCC(C)C)c2C3=O)C1", "value": "50 µM"}
{"SMILES": "C[C@H]1CC[C@]2(CC(=O)N(CC(C)(C)C)O2)[C@H]2CN1C(=O)c1c(O)c(=O)c(C(=O)NCc3c(F)cc(F)cc3F)cn12", "value": "50 µM"}
{"SMILES": "O=C(NCCCCN1CCCC2=C[C@@H]3C[C@@H](CN4CCCC[C@H]34)[C@@H]21)C1(c2ccc(OC(F)(F)F)cc2)CC1", "value": ">20 µM"}
{"SMILES": "C[C@H]1CC[C@@]2(CC(CF)=NO2)[C@H]2CN1C(=O)c1c(O)c(=O)c(C(=O)NCc3ccc(F)cc3F)cn12", "value": "50 µM"}
{"SMILES": "CCCCCCCCCCCCCCCC(=O)OCOc1c2n(cc(C(=O)NCc3ccc(F)cc3F)c1=O)[C@@H]1CN(C2=O)[C@@H](C)CC[C@]12CC(C)=NO2", "value": "50 µM"}

For reference, 2 entries again:

| SMILES | value |
|---|---|
| CCCCCCCC(=O)OCOc1c2n(cc(C(=O)NCc3ccc(F)cc3F)c1=O)[C@@H]1CN(C2=O)[C@@H](C)CC[C@]12CC(OC)=NO2 | 50 µM |
| O=C(NCCCN1CCCC2=C[C@@H]3C[C@@H](CN4CCCC[C@H]34)[C@@H]21)c1c(F)cc(Br)cc1F | >20 µM |